Experimental data as given in paper PMC8509808, “Characterization of the Chimeric PriB-SSBc Protein” (International Journal of Molecular Sciences, 2021).
Construct, isoform or probe ends are uncertain for at least one entry. The comparison behind a weaker result is the experiment's own reference, which may not be listed here. Tags and fusion partners may be left off the protein sequences shown.

Molecular target: T1, KpPriB (Klebsiella pneumoniae) (UniProt A6THB2)
T1 sequence (looked up, limits assumed): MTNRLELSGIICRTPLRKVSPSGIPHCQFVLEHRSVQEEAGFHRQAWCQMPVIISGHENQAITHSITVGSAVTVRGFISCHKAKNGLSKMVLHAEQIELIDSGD
Assay: EMSA
Conditions: ND, smears, no stable complex up to 50 uM protein; EMSA: 20 mM Tris-HCl pH 8.0, 100 mM NaCl, 25 C, 30 min, 1.7 nM 32P-ssDNA; 8% native PAGE in TBE at 4 C; recombinant protein; label: 5'-32P; single-stranded DNA

TTTTTTTTTTTTTTTTTTTT [dT20]: binds more weakly.
